Measurements taken from paper PMC12293048, “New Benzimidazole 3′-Deoxynucleosides: Synthesis and Antiherpes Virus Properties” (Biomolecules, 2025).

What was measured:
HSV-1/L2 = experiment: CPE inhibition assay, HSV-1 reference strain L2 in Vero E6 cells; type: cell-based, herpes simplex virus 1; conditions: Vero E6, MOI 0.01
Protocol: (§1) Vero 6 cells for determining cytotoxicity and antiviral activity were cultured according to the method described in [29].
Vero E6 cells were then infected with the infection material at an MOI of 0.01 PFU/cell; incubation was performed at 37 °C in an atmosphere of 5% CO2. […] The duration of incubation was 48 h and 72 h for MOI 0.01 PFU/mL, respectively. […] The results of three independent experiments are shown in Table S1 (Supplementary Materials).

HSV-1/L2/R^ACV = type: cell-based, herpes simplex virus 1; conditions: Vero E6, MOI 0.01, acyclovir-resistant strain
Protocol: as §1
In 96-well plastic plates with the generated cell monolayer, serial dilutions of the compounds were prepared at […] 1:2 with the maintenance medium (Eagle′s medium and medium 199, mixed in a ratio 1:1). Vero E6 cells were then infected with the infection material at an MOI of 0.01 PFU/cell; incubation was performed at 37 °C in an atmosphere of 5% CO2. Cytotoxicity was determined quantitatively by the trypan blue exclusion method and expressed as CD50: the concentration of the drug at which 50% of cells die after 72 h. […] The duration of incubation was 48 h and 72 h for MOI […], respectively. […] An antiviral activity was assessed by determining ID50 and ID95 (concentrations of compounds that inhibit the development of virus-induced CPE as compared with the control by 50% and almost completely). […] The results of three independent experiments are shown in Table S1 (Supplementary Materials).

Row | SMILES | SI (CD50/IC50) HSV-1/L2 (HSV-1/L2) | SI (CD50/IC50) HSV-1/L2/R^ACV (HSV-1/L2/R^ACV) | SI (CD50/IC50) HSV-1/L2 (HSV-1/L2; listed as 4,6-difluoro-benzimidazole) | SI (CD50/IC50) HSV-1/L2 (HSV-1/L2; listed as 4,5,6-trifluoro-1-(β-D-3′-deoxyribofuranosyl)benzimidazole)
1 | Nc1nc2cc(F)c(F)cc2[nH]1 [Compound 8, 2-Amino-5,6-difluorobenzimidazole] | 4.49 | 4.49 |  | 
2 | Fc1cc(F)c2[nH]cnc2c1 [Compound 3, 4,6-Difluorobenzimidazole] | 3.07 | 3.07 | 12.32 | 
3 | OC[C@@H]1C[C@@H](O)[C@H](n2cnc3c(F)c(F)c(F)cc32)O1 [Compound 12a, 4,5,6-trifluoro-1-(β-D-3′-deoxyribofuranosyl)benzimidazole] | 16 | 8 |  | 16.00
4 | OC[C@@H]1C[C@@H](O)[C@H](n2cnc3ccccc32)O1 [Compound 9, 1-(β-D-3′-Deoxyribofuranosyl)benzimidazole] | > 8 | > 4 |  | 
5 | OC[C@@H]1C[C@@H](O)[C@H](n2cnc3c(F)cc(F)cc32)O1 [Compound 11a, 4,6-difluoro-1-(β-D-3′-deoxyribofuranosyl)benzimidazole] | > 8 | > 1 |  | 
6 | Nc1nc2cc(F)c(F)cc2n1[C@@H]1O[C@H](CO)C[C@H]1O [Compound 16, 2-Amino-5,6-difluoro-1-(β-D-3′-deoxyribofuranosyl)benzimidazole] | 3 | 3 |  | 
7 | Nc1nc2ccccc2[nH]1 [Compound 6, 2-aminobenzimidazole] | 3.03 | 2.02 |  | 
8 | c1ccc2[nH]cnc2c1 [Compound 1, Benzimidazole] | 5.96 | 5.96 |  | 
9 | COc1c(F)cc2nc[nH]c2c1F [Compound 5, 4,6-Difluoro-5-methoxybenzimidazole] | 2.86 | 2.14 |  | 
10 | Fc1cc2nc[nH]c2c(F)c1F [Compound 4, 4,5,6-Trifluorobenzimidazole] | 6.00 | 6.00 |  | 
11 | Fc1cc2nc[nH]c2cc1F [Compound 2, 5,6-Difluorobenzimidazole] | 12.32 | 6.16 |  | 
12 | COc1cc2nc(N)[nH]c2cc1F [Compound 7, 2-amino-5-fluoro-6-methoxybenzimidazole] | 12.55 | 12.55 |  | 
13 | COc1c(F)cc2c(ncn2[C@@H]2O[C@H](CO)C[C@H]2O)c1F [Compound 13, 4,6-Difluoro-5-metoxy-1-(β-D-3′-deoxyribofuranosyl)benzimidazole] | > 3 | > 2 |  | 
14 | OC[C@@H]1C[C@@H](O)[C@H](n2cnc3cc(F)c(F)cc32)O1 [Compound 10, 5,6-Difluoro-1-(β-D-3′-deoxyribofuranosyl)benzimidazole] | 12 | 2 |  | 
